The exact form of at least one protein or probe is not confirmed. At least one verdict was read from the data and is not stated in words by the source.

This series concerns the target CT-Ler (Escherichia coli EHEC O157:H7) (UniProt Q7DB51). Kind of series: fluorescence anisotropy. The conditions noted are these: positive control; Anisotropy: 40 mM HEPES pH 7.5, 60 mM K-glutamate, 0.01% NaN3, 20 C; recombinant protein; residues 70-116; protein details: N-terminal His6 (pHAT2).

As to “GGCAAAAAACGGCAAAAAACGGCAAAAAAC (double strand) [(GGCAAAAAAC)3]”, the binding result is recorded as “binds”.

For the origin of these results see publication PMC3219716, “Indirect DNA Readout by an H-NS Related Protein: Structure of the DNA Complex of the C-Terminal Domain of Ler”.
